PubChem BioAssay AID1259414 | Drosophila RNAi Screening Center | 2018

Assay: 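Fly genes that alter Wolbachia amount inside host cells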 (primary screen)
Cell system: Drosophila JW18 cells infected with Wolbachia
Reagents: long dsRNA against Drosophila genes, 0.25 µg dsRNA per well of a 384-well plate
Duration: 5 days
Challenge: cells persistently infected with Wolbachia before knock-down; no added drug
Read-out: 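Imaged fluorescence in situ signal for Wolbachia 23S rRNA per DAPI-counted host cell, given as a robust z-score within each plate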
Reading the numbers: Wolbachia per cell robust z: higher = more Wolbachia per host cell than the plate typical
Hit rule: 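Active if absolute robust z reaches 1.5 in two or more of three replicates, leaving out multi- or no-target dsRNAs, genes unexpressed in JW18 and A1 wells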
The deposit covers about 24,000 reagents; this is an unselected part of those that have a named target and a result. Over the whole deposit, about 1,210 (5%) were called active. 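Inactive calls also include excluded dsRNAs with several or no targets, genes unexpressed in JW18, and well A1, regardless of score.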 Unmarked entries are inactive. The numbers tell different reagents against one gene apart. No sequences are given here.

The first 5 entries as a preview:
| Wolbachia per cell robust z, rep 1 | Wolbachia per cell robust z, rep 2 | Wolbachia per cell robust z, rep 3 | target gene | reagent |
| --- | --- | --- | --- | --- |
| -0.463 | -0.221 | 0.182 | Cyp301a1 | 1 |
| 0.093 | -0.567 | 0.5 | CG14309 | 1 |
| -0.296 | 0.313 | -3.42 | CG15765 | 1 |
| -0.107 | 0.133 | 0.408 | CG15765 | 2 |
| 0.382 | -0.453 | -0.433 | Mpi | 1 |

Results, from the start:
| Wolbachia per cell robust z, rep 1 | Wolbachia per cell robust z, rep 2 | Wolbachia per cell robust z, rep 3 | target gene | reagent |
| --- | --- | --- | --- | --- |
| -0.463 | -0.221 | 0.182 | Cyp301a1 | 1 |
| 0.093 | -0.567 | 0.5 | CG14309 | 1 |
| -0.296 | 0.313 | -3.42 | CG15765 | 1 |
| -0.107 | 0.133 | 0.408 | CG15765 | 2 |
| 0.382 | -0.453 | -0.433 | Mpi | 1 |
| -0.413 | 0.52 | -2.08 | HLH4C | 1 |
| 0.859 | 0.89 | 1.07 | HLH4C | 2 |
| -0.571 | -1.71 | -0.275 | HLH4C | 3 |
| -4.25 | 0.964 | -0.22 | CG17777 | 1 |
| -0.364 | 0.874 | -1.04 | CG31637 | 1 |
| 1.74 (active) | 0.612 | 1.58 | CG31637 | 2 |
| 0.945 | 0.304 | 0.523 | CG31637 | 3 |
| 0.394 | 1.23 | 1.2 | Cyp6t3 | 1 |
| -8.82 | 0.293 | 0.317 | IntS11 | 1 |
| -0.281 | -0.125 | -0.162 | IntS11 | 2 |
| 0.185 | -1.98 | 0.0249 | PGRP-LE | 1 |
| 0.06 | 0.89 | -0.501 | QIL1 | 1 |
| 0.795 | 0.554 | 0.535 | CG5500 | 1 |
| -0.0532 | 0.641 | 0.643 | CG5500 | 2 |
| 0.812 | 0.711 | -1.31 | CG4942 | 1 |
| 0.226 | 0.297 | -1.32 | Nepl19 | 1 |
| 1.25 | 0.373 | 1.02 | stan | 1 |
| -0.716 | -0.18 | 0.0727 | stan | 2 |
| -2.82 | 1.42 | 0.751 | stan | 3 |
| 0.693 | 2.08 | 1.51 | CG8236 | 1 |
| 0.747 | 1.11 | 0.396 | CG8236 | 2 |
| -0.472 | -0.161 | -0.747 | CG15293 | 1 |
| -0.511 | 0.606 | 0.148 | CG14780 | 1 |
| 0.153 | 0.81 | 0.262 | l(2)k05911 | 1 |
| -8.6 (active) | 0.502 | -3.31 | eEF1delta | 1 |
| 0.326 | -0.571 | 0.413 | eEF1delta | 2 |
| -0.426 | 0.536 | -0.633 | CG10887 | 1 |
| -0.148 | 1.44 | 0.621 | CG10887 | 2 |
| 0.0128 | 0.38 | 1.47 | Sec61alpha | 1 |
| -0.0758 | 0.175 | 0.548 | CG31347 | 1 |
| -0.661 | -0.963 | -0.684 | dor | 1 |
| 0.0414 | 0.912 | -0.355 | dor | 2 |
| -2.04 | -4 | -4.81 | Srp9 | 1 |
| 1.37 | -0.0482 | 0.859 | hubl | 1 |
| -1.92 | -1.3 | -0.915 | gskt | 1 |
| 0.275 | 0.81 | 0.595 | gskt | 2 |
| -1.49 | -1.38 | -1.74 | Atg17 | 1 |
| -4.18 | 0.702 | 0.775 | Sgt1 | 1 |
| -4.83 (active) | -2.45 | -0.701 | Sgt1 | 2 |
| 0.24 | 0.00902 | -0.951 | CG6931 | 1 |
| 0.0326 | 0.932 | 1.02 | CG5377 | 1 |
| 0.53 | 0.385 | 0.242 | CG5377 | 2 |
